Anti-infective test results gathered from many reports (values: NIAID ChemDB through PubChem).

Shared fields: growth or infection tests; organism: Aspergillus fumigatus; read-out: MIC

An empty or dashed field is not shown. Neighbouring rows are from separate reports.

SMILES	strain	method	result
CN[C@@H]1[C@H](O[C@@H]2OC[C@@H](O)[C@H](O)[C@H]2O)[C@@H](O)[C@H](O[C@H]2c3cc(C)c(C(=O)NCC(=O)O)c(O)c3-c3c(cc4c(c3O)C(=O)c3cc(OC)cc(O)c3C4=O)[C@@H]2O)O[C@@H]1CO	IAM2034		6.3 µg/mL
Cc1ccc(C(C)C)cc1	F07		>20 µg/mL
CCCCCCCCCCCCCCCCCC(=O)NC(CCCN)C(=O)NC(CCCN)C(=O)NC(CCCN)C(N)=O	ATCC 42203	broth dilution	1.5 µg/mL
CC(C)CCCCCCCCC1CC(=O)NCC(=O)N[C@@H](CCCN)C(=O)N[C@@H](C(C)C)C(=O)N1	IFM4942		>80 µg/mL
Nc1ccc(S(=O)(=O)Nc2ccnn2-c2ccccc2)cc1	IFM 51126		64 µg/mL
CCCCCCCCCC(=O)NC(CCCN)C(=O)NC(CCCN)C(=O)NC(CCCN)C(=O)NC(CCCN)C(N)=O	ATCC 42203	broth dilution	50 µg/mL
C[C@@H](N1CCN(c2ccc(F)cc2)C1=O)C(O)(Cn1cncn1)c1ccc(F)cc1F	TIMM1728		4 µg/mL
Cc1cc(NS(=O)(=O)c2ccc(N)cc2)no1	IFM 47450		32 µg/mL
CCCCCCCCCCCCCC(=O)NC(CCCN)C(=O)NC(CCCN)C(=O)NC(CCCN)C(=O)NC(CCCN)C(N)=O	ATCC 42203	broth dilution	3.1 µg/mL
COc1ccc(NS(=O)(=O)c2ccc(N)cc2)nn1	IFM 47450		≥256 µg/mL
C[C@@H](n1ccn(-c2ccc(OCC(F)(F)C(F)F)cc2)c1=O)C(O)(Cn1cncn1)c1ccccc1F	IFO6344		4 µg/mL
COc1cc(NS(=O)(=O)c2ccc(N)cc2)ncn1	IFM 47450		32 µg/mL
C[C@@H](N1CCN(c2ccc(OCC(F)(F)C(F)F)cc2)C1=O)C(O)(Cn1cncn1)c1ccc(F)cc1F	TIMM1728		0.5 µg/mL
CCCCCCCCCCCCCC(=O)NC(CCCN)C(=O)NC(CCCN)C(=O)NC(CCCN)C(N)=O	ATCC 42203	broth dilution	3.1 µg/mL
CCC(C)CCCCCCC1CC(=O)NCC(=O)N[C@@H](CCCN)C(=O)N[C@@H](C(C)CC)C(=O)N1	TIMM0063		>80 µg/mL
C[C@@H](n1ccn(-c2ccc(OCC(F)(F)C(F)F)cc2)c1=O)C(O)(Cn1cncn1)c1ccc(F)cc1F	IFO6344		2 µg/mL

A second listing of 2 rows from above:

SMILES,strain,method,result
CC(C)CCCCCCCCC1CC(=O)NCC(=O)N[C@@H](CCCN)C(=O)N[C@@H](C(C)C)C(=O)N1,IFM4942,,>80 µg/mL
C[C@@H](N1CCN(c2ccc(OCC(F)(F)C(F)F)cc2)C1=O)C(O)(Cn1cncn1)c1ccc(F)cc1F,TIMM1728,,0.5 µg/mL